## Library screen at single concentrations

Measurements from “University of Dundee, Small-Polar-MMV Screening Library” (2021), ChEMBL document CHEMBL3988442.

Mtb cholesterol medium: 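Phenotypic screen: M. tuberculosis growth, cholesterol and DPPC medium, 4 days; the read-out is not stated. Compounds at 500 µM. Direction is inferred from retests: higher values go with more growth inhibition. Size under these conditions: about 18,000 compounds, about 900 of them at 50% or above in at least one test.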
Mtb glucose medium: 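Whole-cell growth test on Mycobacterium tuberculosis, read after 3 days in glucose-containing 7H9 medium; the read-out is not stated. Tested at 500 µM. Higher reads as more growth inhibition (inferred: compounds with an IC50 in retests scored well above the rest). Of about 18,000 compounds tested this way, about 1,400 (7.9%) reached 50% or more in at least one test.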

The filed quantity is “Percent Effect” (%). How 0% and 100% were set is not recorded. Most values in the screen are low, and negative values occur. This is part of a subset picked to be rich in strong results. A dash means the value is not listed here; it may have been measured.

| structure | Mtb cholesterol medium | Mtb glucose medium |
|---|---|---|
| `CCC(CC)C(O)CNC(=O)CC1(O)CCCC1` (centres undefined) | - | -1.977% |
| `Cc1nc(C)c(CNc2ccc(C#N)nc2)s1` | 4.009% | 1.37% |
| `CC(C)C(C)(C#N)NC(=O)CNc1cccc(F)c1` (centres undefined) | 73.24% | 72.49% |
| `O=C(NC1CC1)N1CCN(c2ncccc2Cl)CC1` | - | 52.49% |
| `O=C(NCC1CCN(C2CC2)C1)Nc1nccs1` (centres undefined) | - | 38.62% |
| `COc1ccc(C(NCCO)C2CCOCC2)cc1` (centres undefined) | - | 10.13% |
| `Cc1nc2ccc(CO)cc2s1` | - | 3.767% |
| `CC(=Cc1ccccc1)CN1CCC(C(N)=O)C1` (centres undefined) | - | 16.58% |
| `COc1csc(-c2cc(N)n(C)n2)c1` | - | 10.27% |
| `CCOC(=O)Cn1cnc2sc(C(N)=O)c(C)c2c1=O` | -1.917% | - |
| `CCOc1ccc(C(=O)N2CCCC(C(N)=O)C2)cn1` (centres undefined) | - | 24.88% |
| `CCCN(Cc1cc(OC)ccn1)C1CCS(=O)(=O)C1` (centres undefined) | - | 3.254% |
| `COc1ccc2c(c1)CN(C(=O)c1ccccn1)CC2` | - | 22.96% |
| `CCNS(=O)(=O)C1CCN(Cc2cccnc2C)C1` (centres undefined) | - | 19.84% |
| `O=C1CCc2cc(NC3CCS(=O)(=O)CC3)ccc2N1` | -5.914% | - |
| `CN(CC(=O)NCCC#N)Cc1nc2ccccc2s1` | - | 18.32% |
| `CN(C)C(=O)NC1CCCNC1` (centres undefined) | -13.92% | - |
| `CN1CCC(Oc2ccc(C(N)=O)cn2)CC1` | - | 13.63% |
| `N#Cc1ccccc1OCCNCC1CCCO1` (centres undefined) | 19.76% | - |
| `CC(C)NC(=O)CN(C)CC(=O)NC1(C#N)CCCC1` | -9.349% | - |
| `CC(C)N1CCC(NC(=O)Nc2ccccn2)C1` (centres undefined) | - | 2.792% |
| `Cc1cc(CN2CCC(C(=O)NCC(C)O)CC2)on1` (centres undefined) | - | 6.612% |
| `CCn1cc(Br)c(=O)c(NC(=O)Cc2cccnc2)c1` | - | -0.3514% |
| `O=C(Nc1cccc(Cl)c1)N1CCCNCC1` | 15.45% | - |
| `NCC1CCN(c2ccncc2)CC1` | -2.087% | - |
| `CCOc1ccc(Cn2cccc(C)c2=O)nc1` | 10.86% | 35.13% |
| `CCN(CCc1ccccc1)C(=O)CN1CSCC1=O` | - | 31.29% |
| `NC(=O)c1ccccc1NC(=O)CSc1ccccn1` | 53.16% | 53.18% |
| `NCc1ccc2[nH]c(=O)oc2c1` | 4.416% | - |
| `COC(=O)CN1CCN(Cc2ccccc2)CC1` | - | 17.04% |
| `CC(CN1CCOCC1)NC(=O)c1csc(Br)c1` (centres undefined) | - | 51.59% |
| `Cc1cc(CC(=O)NCCCc2ccncc2)on1` | 87.19% | - |
| `O=C(NCC1CCS(=O)(=O)C1)N(CCO)C1CC1` (centres undefined) | -2.283% | - |
| `CCNC(=O)Cc1nnc(-c2cccc(F)c2)o1` | - | 21.24% |
| `CSc1ncc(CNCC2(O)CNCCOC2)n1C` (centres undefined) | 7.135% | - |
| `CCn1ncnc1CN1CCC(O)(c2ccccc2)C1` (centres undefined) | - | -5.707% |
| `CC[C@H](C)[C@H](N)C(=O)NCCCc1ccncc1` | - | 12.63% |
| `O=C1CN(Cc2ncc(-c3ccc(Cl)cc3)o2)CCN1` | -14.33% | - |
| `Cc1n[nH]c(SCC(=O)NCCCc2ncc[nH]2)n1` | - | 14.1% |
| `OCCNCCNCc1ccc(-c2cccc(Cl)c2)o1` | 77.49% | 83.53% |
| `O=C(NC1CCN(C2CCOCC2)CC1)c1cnc[nH]1` | - | 9.015% |
| `COc1ccc(N2C(=O)C=CC2=O)cc1OC` | -21.88% | - |
| `COCCNC(=O)c1cc2cc(C)ccc2n1C` | 61.8% | 77.85% |
| `COc1ccc(-c2nnn(CCO)n2)cc1OC` | 7.347% | 22.89% |
| `COCCC1(CN2CCC(C(N)=O)C2)CCC1` (centres undefined) | - | -8.381% |
| `CSc1ncc(CN)n1C` | 12.64% | -14.28% |
| `O=C1N(Cc2ccccc2)CCN1S(=O)(=O)Cl` | 72.5% | 65.65% |
| `CC(C)C(=O)N1CCC(C(=O)NCC2CC2)CC1` | - | 16.76% |
| `CN(C)S(=O)(=O)NCC1CCCN(Cc2ccsc2)C1` (centres undefined) | - | -22.37% |
| `c1csc(CNCCCn2ccnc2)c1` | - | -0.08727% |
| `CN1C(=O)C[C@@H](N)[C@@H]1c1ccc(Cl)c(Cl)c1` | -1.328% | - |
| `CN(Cc1nc(-c2cccs2)no1)C(=O)C(C)(C)C` | - | -1.201% |
| `CSCc1nc(CN)cs1` | - | 14.91% |
| `O=C(NCCSCc1cccc(Cl)c1)C1CNCCO1` (centres undefined) | 73.2% | 76.19% |
| `NCc1ccc2c(c1)COC2` | - | 2.811% |
| `CN(Cc1cccc(O)c1)C(=O)c1cc[nH]n1` | 8.565% | - |
| `COC(=O)NCC(=O)N(C)c1ccc2ccccc2c1` | - | 50.48% |
| `CC(C)OCc1nc(C(C)N)no1` (centres undefined) | - | 11.18% |
| `CN(C)S(=O)(=O)c1ccc(O)cc1` | - | 16.6% |
| `CN(C)c1ncc(CN(CCO)Cc2nccs2)cn1` | - | 43.52% |
| `N#CCOC(=O)c1ccc(-n2cnnn2)cc1` | - | 0.06781% |
| `CC(=O)NCCNC(=O)c1cc2c(F)cccc2s1` | - | 10.34% |
| `CC(=O)N(C)C1CCN(CC(=O)N2CCCC2)CC1` | -8.294% | - |
| `COc1cccc(C(=O)NCc2ccoc2C)n1` | - | 55.27% |
| `Cc1cccc(C(=O)NCC2(O)CCC2)c1O` | - | 21% |
| `CC(=O)Nc1ccc(CCN)cc1` | - | 14.88% |
| `Cc1ncn(CC(=O)Nc2ccccc2F)c(=O)c1C` | - | -8.503% |
| `CCC1(CO)CCCN(CCCC(N)=O)C1` (centres undefined) | - | 4.111% |
| `N#Cc1ccccc1NCc1cccnc1` | 25.3% | - |
| `COCCN(CCC#N)Cc1nc2ccccc2n1C` | - | 24.64% |
| `COc1ccc(CCN)cc1S(N)(=O)=O` | 8.842% | 15.92% |
| `CCC(CO)Nc1nccc(C(F)(F)F)n1` (centres undefined) | 53.48% | 52.72% |
| `CC(=O)NCCCNCc1cccc(C#N)c1` | - | 53.94% |
| `CC(C)c1nccn1CC(=O)NC(=O)NC1CC1` | - | -0.8394% |
| `CC(=O)c1cccc(C#N)c1` | 7.355% | - |
| `CN1C(=O)C(N)CCc2ccccc21` (centres undefined) | 9.618% | - |
| `Cc1cc(C2CCCN2CCS(C)(=O)=O)on1` (centres undefined) | - | 10.78% |
| `N#Cc1cccc(CSc2nnc(N)s2)c1` | 35.77% | - |
| `Cc1cc(C(=O)N2CCN(C)C(=O)C2(C)C)c(C)o1` | -5.642% | - |
| `CNC(=O)CN(C)C(=O)Cc1c[nH]c2ccccc12` | -1.836% | 5.575% |
| `CC(C)(N)CN1CCCC1` | 4.301% | 1.595% |
| `OCCN(CCO)Cc1cc(Br)cc2cccnc12` | - | 48.43% |
| `NC(CO)c1ccc(F)cc1F` (centres undefined) | - | 3.52% |
| `O=S1(=O)CCN(c2ccnc3cc(Cl)ccc23)CC1` | - | -7.6% |

The last 5 entries again:

{"structure": "CNC(=O)CN(C)C(=O)Cc1c[nH]c2ccccc12", "Mtb cholesterol medium": -1.836, "Mtb glucose medium": 5.575}
{"structure": "CC(C)(N)CN1CCCC1", "Mtb cholesterol medium": 4.301, "Mtb glucose medium": 1.595}
{"structure": "OCCN(CCO)Cc1cc(Br)cc2cccnc12", "Mtb glucose medium": 48.43}
{"structure": "NC(CO)c1ccc(F)cc1F", "stereo": "centres undefined", "Mtb glucose medium": 3.52}
{"structure": "O=S1(=O)CCN(c2ccnc3cc(Cl)ccc23)CC1", "Mtb glucose medium": -7.6}